A mixed list of measured activities; the numbers were collected in NIAID ChemDB.

All rows: tests in culture; species: HIV-1

Fold resistance has wild type as its base. Rows are shuffled and stem from different studies. Percent inhibition refers to the dose given; in toxicity tests it is the harm to the cells. ECn is the concentration giving n% inhibition of infection, replication or growth. Blank or dashed fields: not listed here.

CC(=O)Nc1ccc(/C=C/c2ccc(N=C=S)cc2S(=O)(=O)O)c(S(=O)(=O)O)c1 ; read-out: inhibition ; cell line: JM ; read by: p24 ; strain: GB8 ; dose: 100 µg/mL ; value: 98.4%
CC(C)c1nc(CN(C)C(=O)N[C@H](C(=O)N[C@@H](Cc2ccccc2)C[C@H](O)[C@H](Cc2ccccc2)NC(=O)OCc2cncs2)C(C)C)cs1 ; changes: PR-D30N M46I A71V ; read-out: EC50 ; cell line: MT-4 ; read by: p24 ; strain: NL4-3 ; value: <0.04 µM
O=C(O)P(=O)(O)O ; read-out: inhibition ; cell line: PBL ; read by: RT activity ; setting: 6 d ; strain: IIIB ; dose: 128 µM ; value: 99%
CC(C)Nc1cccnc1N1CCN(C(=O)c2cc3cc(N=CN(C)C)ccc3[nH]2)CC1 ; read-out: inhibition ; cell line: PBMC ; read by: MTT ; strain: Seropositive clinical isolate D ; dose: 1 µM ; value: 100%
CO[P@](=O)(c1cc(C)cc(/C=C/C#N)c1)c1c(C(N)=O)[nH]c2ccc(Cl)cc12 ; changes: K103R/V179D/P225H ; read-out: EC50 ; cell line: MT-4 ; strain: IIIB ; value: 0.025 µM
CC(C)=CCN1c2cc(Cl)cc3[nH]c(=S)n(c23)C[C@@H]1C ; changes: RT-M41L T215Y K103N ; read-out: EC95 ; cell line: MT-4 ; value: 0.8 µM
Cc1ccnc2c1NC(=O)c1cccnc1N2C1CC1 ; changes: RT-V108I M184I ; read-out: fold resistance ; cell line: CEM ; read by: cytopathic effect ; strain: D-3 (RT-V108I M184I) ; value: 3
Cc1ccnc2c1NC(=O)c1cccnc1N2C1CC1 ; read-out: EC50 ; cell line: C8166 ; read by: ELISA ; strain: MN ; value: 0.018 µM
CC(=O)N1CCC(C(=O)N(CCCN2CCC(Cc3ccc(C(N)=O)cc3)CC2)c2ccc(C)c(Cl)c2)CC1 ; read-out: EC50 ; cell line: U87 (CD4+ CCR5+) + U87 ; read by: luciferase ; strain: R5X4 subtype B_1 recombinant ; value: 0.007 µM
CC(C)(C)NC(=O)[C@@H]1C[C@@H]2CCCC[C@@H]2CN1C[C@@H](O)[C@H](Cc1ccccc1)NC(=O)[C@H](CC(N)=O)NC(=O)c1ccc2ccccc2n1 ; changes: PR-L10R M46I L63P ; read-out: fold resistance ; cell line: MT-4 ; read by: p24 ; strain: NL4-3 ; value: 1
CC(C)=CCOc1cc(NC(=S)c2ccoc2C)ccc1Cl ; changes: RT-L100I T139I ; read-out: fold resistance ; cell line: CEM + CEM-SS ; read by: XTT ; strain: Costatolide-resistant (RT L100I T139I) ; value: 8
c1cc(CN2CCCNCCNCCCNCC2)ccc1CN1CCCNCCNCCCNCC1 ; read-out: inhibition ; cell line: PBMC ; read by: p24 ; strain: CM7 CLADE C R5 ; dose: 0.5 µM ; value: 3%
O=C(O)P(=O)(O)O ; read-out: EC50 ; cell line: PBMC ; read by: p24 ; strain: 9632 CLADE B CLADE B ; value: 7.82 µM
O=c1[nH]cnc2c1ncn2[C@H]1CC[C@@H](CO)O1 ; read-out: inhibition ; cell line: PBMC ; read by: p24 ; strain: IIIB ; dose: 0.5 µM ; value: 40%
CC(C)Nc1cccnc1N1CCN(C(=O)c2cc3cc(NS(C)(=O)=O)ccc3[nH]2)CC1 ; changes: RT-V108I M184I ; read-out: fold resistance ; cell line: CEM ; read by: cytopathic effect ; strain: D-3 (RT-V108I M184I) ; value: 5
CC(C)[C@H](NC(=O)c1ccc2ccccc2n1)C(=O)N[C@@H](Cc1ccccc1)[C@H](O)CN1CC[C@@H](OCc2ccncc2)C[C@H]1C(=O)NC(C)(C)C ; read-out: inhibition ; cell line: Macrophage + Monocytes/macrophages ; read by: p24 ; strain: ADA ; dose: 0.012 µM ; value: 90%
C/C(=C(/CCO)SS/C(CCO)=C(\C)N(C=O)Cc1cnc(C)nc1N)N(C=O)Cc1cnc(C)nc1N ; read-out: inhibition ; cell line: H9/HIV-1(MN) + H9 ; read by: p24 ; strain: MN ; dose: 500 µM ; value: 99%
O=C1N(Cc2ccc(CO)cc2)[C@H](Cc2ccccc2)[C@H](O)[C@@H](O)[C@@H](Cc2ccccc2)N1Cc1ccc(CO)cc1 ; read-out: inhibition ; cell line: PBMC ; read by: p24 ; strain: RF ; dose: 0.16 µM ; value: 90%
Cc1occc1C(=S)Nc1ccc(Cl)c(/C=N/OC(C)(C)C)c1 ; changes: RT-K103N ; read-out: fold resistance ; cell line: CEM + CEM-SS ; read by: cytopathic effect / XTT ; strain: UC10/costatolide-resistant (RT K103N) ; value: 36.5
S=C(NCCc1cccs1)Nc1ccc(Br)cn1 ; changes: RT-M41L T215Y ; read-out: EC50 ; cell line: HT4 + HeLa ; read by: plaque count ; strain: P798-1 Clinical isolate NRTI-resistant ; value: 0.071 µM
Cc1cn([C@H]2C[C@H](N=[N+]=[N-])[C@@H](CO)O2)c(=O)[nH]c1=O ; changes: RT-L100I ; read-out: fold resistance ; cell line: CEM + CEM-SS ; read by: XTT ; strain: Oxathiin carboxanilide-resistant RT L100I ; value: 0.8
CC(C)=CCN1Cc2cc(Cl)cc3[nH]c(=S)n(c23)C[C@@H]1C ; changes: RT-L74V Y181C T215Y ; read-out: fold resistance ; cell line: HT4 + HT4 LacZ-1 ; read by: plaque count ; strain: HIVRTMF (RT L74V Y181C) ; value: 22.7
Oc1ccc(/C=C/c2cc(O)cc(O)c2)cc1 ; read-out: inhibition ; cell line: PBMC ; read by: p24 ; strain: IIIB ; dose: 5 µM ; value: 10%
CCCCCCCCCCCCCCCCOP(=O)(OC[C@H]1OC(O)[C@H](O)[C@@H](O)[C@@H]1O)OC[C@H]1O[C@@H](n2cc(C)c(=O)[nH]c2=O)C[C@@H]1N=[N+]=[N-] ; read-out: inhibition ; cell line: CEM ; read by: RT activity ; setting: 15 d ; strain: LAV-Bru ; dose: 0.2 µM ; value: 92%
Cc1cn([C@H]2C[C@H](N=[N+]=[N-])[C@@H](CO)O2)c(=O)[nH]c1=O ; changes: RT-V106A ; read-out: fold resistance ; cell line: CEM ; read by: cytopathic effect ; strain: E-2 (RT-V106A) ; value: 3
CCc1c(Sc2ccccn2)n(COCc2ccccc2)c(=O)[nH]c1=O ; changes: RT-Y181C ; read-out: fold resistance ; cell line: CEM + CEM-SS ; read by: cytopathic effect / XTT ; strain: UC82-R (RT-Y181C) ; value: 205
Cc1ccnc2c1NC(=O)c1cccnc1N2C1CC1 ; changes: RT-L100I ; read-out: fold resistance ; cell line: CEM + CEM-SS ; read by: XTT ; strain: Dihydrocostatolide-resistant (RT-L100I) ; value: 10
C/C=C/CSc1cc(NC(=S)c2ccsc2C)ccc1Cl ; changes: RT-V179D ; read-out: fold resistance ; cell line: CEM + CEM-SS ; read by: cytopathic effect / XTT ; strain: NL4-3 (RT V179D) ; value: 6
Cc1cn([C@H]2C[C@H](N=[N+]=[N-])[C@@H](CO)O2)c(=O)[nH]c1=O ; read-out: inhibition ; cell line: CEM ; read by: RT activity ; setting: 15 d ; strain: LAV-Bru ; dose: 1 µM ; value: 97%
CC(C)CN(C[C@@H](O)[C@H](Cc1ccccc1)NC(=O)[C@H](CC(N)=O)NC(=O)c1ccc2ccccc2n1)C(=O)NC(C)(C)C ; changes: PR-L10R M46I V82T ; read-out: fold resistance ; cell line: MT-4 ; read by: p24 ; strain: NL4-3 ; value: 0.5
Cc1ccnc2c1NC(=O)c1cccnc1N2C1CC1 ; changes: RT-T139I ; read-out: fold resistance ; cell line: CEM + CEM-SS ; read by: cytopathic effect / XTT ; strain: Calanolide A-resistant (RT T139I) ; value: 1

The last 2 rows once more:

compound,changes,read-out,cell line,read by,setting,strain,dose,value
CC(C)CN(C[C@@H](O)[C@H](Cc1ccccc1)NC(=O)[C@H](CC(N)=O)NC(=O)c1ccc2ccccc2n1)C(=O)NC(C)(C)C,PR-L10R M46I V82T,fold resistance,MT-4,p24,,NL4-3,,0.5
Cc1ccnc2c1NC(=O)c1cccnc1N2C1CC1,RT-T139I,fold resistance,CEM + CEM-SS,cytopathic effect / XTT,,Calanolide A-resistant (RT T139I),,1